# “And” between values parts separate entries of the source, which are not always exact repeats. Identical values can stand only once. Like-named read-outs stand apart in the source and are kept apart here. Marks after values point to notes of the source that are not given here.
# How the values were obtained:
# HepG2 cells [1] = conditions: SI = CC50/MIC H37Rv-LP; MTT method
# Vero cells [2] = conditions: SI = CC50/MIC H37Rv-LP; NR assay
# HepG2 cells [3] = conditions: SI = CC50/MIC H37Rv-LP; NR assay
# HepG2 cells [4] = conditions: SI = CC50/MIC H37Rv-LP; for SI HepG2+Gal: galactose medium; for SI HepG2+Glu: glucose medium
# Vero cells [5] = conditions: SI = CC50/MIC H37Rv-LP; MTT method
Structure (SMILES),SI HepG2 (HepG2 cells [1]),SI Vero (Vero cells [2]),SI HepG2 (HepG2 cells [3]),SI HepG2+Gal (HepG2 cells [4]),SI HepG2+Glu (HepG2 cells [4]),SI Vero (Vero cells [5])
Cc1nc(NCCc2ccccc2)c2cc(I)ccc2n1 [9d],9.0,12.3; ^c 12.3 ^d,8.3,5.4,11.5,12.3; ^c 12.3 ^d
COc1ccc(CCNc2nc(C)nc3ccc(I)cc23)cc1 [10d],12 and 12.1,17.3,9.2,7.0,11.7,9.8
Cc1nc(NCCc2ccc(Cl)cc2)c2cc(I)ccc2n1 [11d],12,14.0,7.9,3.9,5.0,2.70
Cc1nc(NCCc2ccc(OC(F)(F)F)cc2)c2cc(Br)ccc2n1 [13c],<1; ^c <1 ^d,<1; ^c <1 ^d,<1; ^c <1 ^d,0.3,0.4,<1; ^c <1 ^d
Cc1nc(NCCc2ccc(OC(F)(F)F)cc2)c2cc(I)ccc2n1 [13d],2.0; ^c 2.0 ^d,< 1,2.0; ^c 2.0 ^d,0.6,0.9,1.2
Cc1ccc(CCNc2nc(C)nc3ccc(I)cc23)cc1 [15d],21 and 21.3,26.3,22.1,13.8,23.8,22.3
CCc1ccc(CCNc2nc(C)nc3ccc(Br)cc23)cc1 [16c],<1; ^c < 1 ^d,2.8,<1; ^c < 1 ^d,0.8,2.0,< 1
CCc1ccc(CCNc2nc(C)nc3ccc(I)cc23)cc1 [16d],4.4; ^c 4.4 ^d,4.7,4.4; ^c 4.4 ^d,2.8,3.9,3.2
Cc1nc(NCCc2ccc3ccccc3c2)c2cc(Br)ccc2n1 [17c],<1; ^c <1 ^d,2.6,<1; ^c <1 ^d,0.7,1.8,2.0
Cc1nc(NCCc2ccc3ccccc3c2)c2cc(I)ccc2n1 [17d],4.9,7.4,3.4,3.7,5.1,6.9
Cc1nc(NCCCc2ccccc2)c2ccccc2n1 [18a],2.3,6.0,< 1,1.6,4.8,4.9
COc1ccc2nc(C)nc(NCCCc3ccccc3)c2c1 [18b],> 13.0,11.6,11.3,7.3,9.3,9.7
Cc1nc(NCCCc2ccccc2)c2cc(Br)ccc2n1 [18c],49.3,50.0,47.1,34.6,68.2,41.4
Cc1nc(NCCCc2ccccc2)c2cc(I)ccc2n1 [18d],> 34.5,27.8,31.6,22.4,35.0,25.7
c1ccc(CCCNc2ncnc3ccccc23)cc1 [18e],<1; ^c <1 ^d,<1; ^c <1 ^d,<1; ^c <1 ^d,0.1,0.5,<1; ^c <1 ^d

# Source: PMC12257397, “Scaffold Hopping Strategy toward New 4‑Aminoquinazolines Active Against Extracellular and Intracellular Mycobacterium tuberculosis” (ACS Medicinal Chemistry Letters, 2025)
